For at least one entry, the source does not settle the construct or the ends of the probe.
Molecular target: QseB phosphorylated (QseB-P) (UniProt B7UIT0)
Assay: EMSA
Conditions: acetyl phosphate-phosphorylated, complete shift at 3 ug protein, 20 fmol DNA; […] (printed '0. 1') […]; binding buffer, pH and temperature not stated; recombinant protein; protein details: His6 (pNIC28-Bsa4); label: 5' biotin on both strands

“ATTTACGTCTAATATTAGTTTCTTAAGGTTAAGTTAATATTCTATCCTTAAAATTTTGCT (double strand) [arn promoter QseB site, biotinylated]”: binds.
